Laboratory results taken from patent publication US20230302100A1.

Biological target: denosumab (XGEVA)
Experiment: cell-based or functional assay

Substance: pCART124 (IdeS with N terminal methionine and histidine tag) (enzyme)
- Conc. of enzyme for 2nd IgG2 (XGEVA) heavy chain cleavage (scIgG to F(ab')2), SDS-PAGE: 1100 ng/mL
- EC50, potency ELISA: 0.225 µg/mL
